# Laboratory results: article PMC10372912, “Evidence for direct interaction between the oncogenic proteins E6 and E7 of high-risk human papillomavirus (HPV)” (The Journal of Biological Chemistry, 2023)
# B1: mTagBFP2-18E6 (natural protein)
# chain: not shown
# notes: Cloned in pmTagBFP-C1; SG linker between the fluorescent protein and the viral protein; also called mTagBFP2-E6 (HPV18); HPV 18E6; source: C33A, transfected, in cells; not shown: mTagBFP2, N-terminal, kept
# Molecular target: T1, EYFP-18E7 (human papillomavirus type 18)
# T1 construct: Cloned in pEYFP-C1; SG linker between EYFP and E7; also called EYFP-E7 (HPV18); HPV 18E7; source: C33A, transfected, in cells; not shown: EYFP, N-terminal, kept
# Experiment: FRET or BRET; flow cytometry-based FRET (FACS-FRET) in C33A cells coexpressing mTagBFP2-E6 and EYFP-E7 of the same HPV type; at least 10% FRET and at least 500 FRET-positive cells count as an interaction; three biological replicates
# Settings: partners not purified
binder,measurement,value
B1,percent FRET,15%
